Results deposited as PubChem BioAssay AID1259414 (Drosophila RNAi Screening Center, 2018).
Screen: 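Fly genes that alter Wolbachia amount inside host cells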 (primary screen). Cells: Drosophila JW18 cells infected with Wolbachia. Knock-down reagent: long dsRNA against Drosophila genes, 0.25 µg dsRNA per well of a 384-well plate. Duration: 5 days. Treatment: cells persistently infected with Wolbachia before knock-down; no added drug. Detection: 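Imaged fluorescence in situ signal for Wolbachia 23S rRNA per DAPI-counted host cell, given as a robust z-score within each plate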. Reading the numbers: Wolbachia per cell robust z: higher = more Wolbachia per host cell than the plate typical. Rule for the call: 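Hit when robust z is 1.5 or more, or -1.5 or less, in at least two of three replicates; excludes dsRNAs with several or no targets, genes not expressed in JW18 and well A1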.
The screen tested about 24,000 reagents; below is an unselected part of those with a known target gene and a result. In the full data, about 1,210 (5%) got an active call. 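Inactive calls also include excluded dsRNAs with several or no targets, genes unexpressed in JW18, and well A1, regardless of score.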 A plus sign joins genes that one reagent is predicted to hit.

| gene knocked down | dsRNA | Wolbachia per cell robust z, rep 1 | Wolbachia per cell robust z, rep 2 | Wolbachia per cell robust z, rep 3 | Call |
| --- | --- | --- | --- | --- | --- |
| B9d1 | DRSC14993 | -4.22 | -0.098 | -0.0205 | inactive |
| Unc-115a | DRSC12749 | 0.865 | 0.623 | 0.336 | inactive |
| Unc-115a | DRSC24907 | 0.151 | -7.33 | -0.598 | inactive |
| Gp210 | DRSC04861 | -2.87 | -0.137 | 0.864 | inactive |
| Gp210 | DRSC04900 | -3.23 | 1.13 | 0.00365 | inactive |
| CG14452 + CG12546 | DRSC29979 | 0.497 | -0.639 | -2.77 | inactive |
| CR40801 | DRSC38667 | 0.611 | -0.607 | -0.167 | inactive |
| Sdhaf3 | DRSC15020 | 0.531 | 0.386 | -0.186 | inactive |
| Mad1 | DRSC07561 | 0.977 | -2.52 | -0.239 | inactive |
| Nxf3 | DRSC21749 | -1.52 | -1.39 | -0.0446 | inactive |
| kuk | DRSC15730 | 1.05 | 1.07 | 2.21 | inactive |
| kuk | DRSC26235 | 2.05 | -0.712 | -0.0807 | inactive |
| CG5946 | DRSC10560 | 0.02 | -0.43 | 0.241 | inactive |
| CG34136 | DRSC38614 | 0.209 | 0.837 | -0.256 | inactive |
| Dh44-R2 + CG34234 | DRSC07278 | -0.329 | -7.08 | -0.406 | inactive |
| Pex3 | DRSC10731 | -0.553 | -0.824 | -3.25 | inactive |
| Lsd-2 | DRSC20143 | -0.372 | 0.166 | 0.455 | inactive |
| Lsd-2 | DRSC28901 | -1.85 | -2.53 | -1.19 | active |
| CG31279 | DRSC13158 | -0.574 | -0.648 | -0.00976 | inactive |
| TTLL4A | DRSC02528 | -0.033 | 0.354 | -0.863 | inactive |
| TTLL4A | DRSC28124 | -0.558 | -1.18 | -0.828 | inactive |
| Rint1 | DRSC11010 | 0.499 | 0.954 | 0.0983 | inactive |
| Rint1 | DRSC27960 | -0.999 | -0.00216 | 0.388 | inactive |
| CG11334 | DRSC14066 | 0.0999 | -6.49 | 1.35 | inactive |
| CG11334 | DRSC14302 | -3.95 | -1 | -1.25 | inactive |
| CG12783 | DRSC14538 | 0.0209 | 0.805 | 0.165 | inactive |
| RpL29 | DRSC04650 | -0.921 | -0.0382 | -0.16 | inactive |
| Gr22e | DRSC20912 | -0.648 | 0.165 | -3.66 | inactive |

Individual results from above:
Entry for RpL29 [DRSC04650] under “Call”: inactive
Gr22e [DRSC20912], Call → inactive
Unc-115a [DRSC24907], Wolbachia per cell robust z, rep 1 = 0.151
For “Call”, Gp210 [DRSC04900] is entered as inactive
